Anti-infective test results gathered from many reports (values: NIAID ChemDB through PubChem).

Common to all: whole-cell or culture tests; species: Candida glabrata; read by: broth dilution; endpoint: MIC

Lines come from different laboratories, so protocols vary. An empty or dashed field is not shown.

smiles,strain or isolate,conditions,result
CCCCCCCCCCCCCCCC(=O)NC(CCCCN)C(=O)NC(CCCCN)C(N)=O,4883,-,2 µg/mL
CCCCCCCCCCCC[n+]1cccc2ccccc21,20/I,48 h,0.01562 µg/mL
C/C1=C\C(=O)c2c(C)coc2C/C(C)=C/CC1,ATCC 90030,-,>256 µg/mL
C/C(=N\NC([S-])=Nc1ccccc1F)c1ccccn1.CCC[CH2][Sn+3],ATCC 90030,-,3.74 µM
Cc1ccc(N2N=C(c3c[nH]c4ccccc34)CC2c2ccc(Cl)c(Cl)c2)cc1,ATCC 36583,-,100 µg/mL
COc1ccc(OCC(=O)c2ccccc2)cc1,ATCC 90030,24 h,>125 µg/mL
O=C(/C=C/c1ccc(Cl)c(Cl)c1)c1c[nH]c2ccccc12,ATCC 36583,-,400 µg/mL
Clc1ccccc1C(c1ccccc1)(c1ccccc1)n1ccnc1,40 isolates,pH 4,16 µg/mL
COc1ccccc1OCC(=O)c1ccccc1,ATCC 90030,24 h,>125 µg/mL
N#Cc1ccc(/C=N/NC(=O)c2ccc(CNc3nc4ccccc4[nH]3)cc2)cc1,ATCC 36583,-,25 µg/mL
O=P(O)(O)OP(=O)(O)OP(=O)(O)O,MC370,-,390 µg/mL
CCOc1ccc2nc3cc(N=C4NC(=O)/C(=C\C=C\c5ccc([N+](=O)[O-])o5)S4)ccc3c(N)c2c1,-,-,333 µg/mL
C[C@@H](c1ncncc1F)[C@](O)(Cn1cncn1)c1ccc(F)cc1F,1,-,0.5 µg/mL
CC(C)S(=O)(=O)N1CCN(c2cnn(-c3cc(F)cc(F)c3)c(=O)c2OC2CCC(F)C2)CC1,C624,-,0.03 µg/mL
Clc1ccc(COC(Cn2ccnc2)c2ccc(Cl)cc2Cl)c(Cl)c1,40 isolates,pH 5,0.5 µg/mL
Cc1ccc(C(O)c2cccc(C(O)CCn3ccnc3)c2)cc1,RTCC 1054,-,>64 µg/mL
CCC(C)CC(C)CCCCCCCCC(=O)N[C@H]1C[C@@H](O)[C@H](NCCN)NC(=O)[C@@H]2[C@@H](O)CCN2C(=O)[C@H]([C@H](O)CCN)NC(=O)[C@H]([C@H](O)[C@@H](O)c2ccc(O)cc2)NC(=O)[C@@H]2C[C@@H](O)CN2C(=O)[C@H]([C@@H](C)O)NC1=O,C454,-,1 µg/mL
O=C(CCn1ccnc1)c1cccc(C(O)c2ccc(Cl)cc2)c1,RTCC 1040,-,32 µg/mL
COC(=O)/C(C)=C1\C(=O)[C@H](O)[C@]2(C)C3=C(C[C@@H]4[C@]5(OC(=O)C6=C5C[C@H]5[C@](O)(COC(=O)/C(C)=C/COC(=O)CCC(=O)OC6)[C@H]6C[C@H]6[C@]45C)[C@H]31)[C@H]1C[C@H]12,ATCC 90030,-,>256 µg/mL
CCC[CH2][Sn+3].O=[N+]([O-])c1ccccc1N=C([S-])N/N=C(\c1ccccc1)c1ccccn1,ATCC 90030,-,3.21 µM
COC(=O)[C@H]1[C@@H]2C[C@@H](O[C@@H]3O[C@H](C)[C@@H](O)[C@H](N)[C@@H]3O)/C=C/C=C/C=C/C=C/C=C/C=C/C=C/[C@H](C)[C@@H](O)[C@H](C)[C@H](C)OC(=O)C[C@H](O)C[C@H](O)[C@@H](O)CC[C@H](O)C[C@H](O)C[C@](O)(C[C@@H]1O)O2,40 isolates,pH 4,4 µg/mL
O=C(/C=C/c1ccc(Cl)cc1Cl)c1c[nH]c2ccccc12,ATCC 36583,-,200 µg/mL
CC[C@@H]([C@H](C)O)n1ncn(-c2ccc(N3CCN(c4ccc(OC[C@@H]5CO[C@@](Cn6cncn6)(c6ccc(F)cc6F)C5)cc4)CC3)cc2)c1=O,8661,-,1 µg/mL
O=C(N/N=C/c1ccc(O)cc1)c1ccc(CNc2nc3ccccc3[nH]2)cc1,ATCC 36583,-,100 µg/mL
Cc1coc2c1C(=O)[C@@H]1[C@](C)([C@H](O)CC[C@@]1(C)O)[C@@H]2O,ATCC 90030,-,>256 µg/mL
Cc1ccc(N2N=C(c3c[nH]c4ccccc34)CC2c2c(Cl)cccc2Cl)cc1,ATCC 36583,-,200 µg/mL
O=C(COc1ccc(F)cc1)c1ccccc1,ATCC 90030,24 h,>125 µg/mL
COc1ccc(/C=N/NC(=O)c2ccc(CNc3nc4ccccc4[nH]3)cc2)cc1,ATCC 36583,-,100 µg/mL
CC1=C2C[C@@H]3[C@](C)(CCC[C@@]3(C)O)C[C@]2(O)OC1=O,ATCC 90030,-,>256 µg/mL
COc1cc(OC/C(=N/O)c2ccccc2)cc(OC)c1OC,ATCC 90030,48 h,>125 µg/mL
C/C(=N\NC([S-])=Nc1ccccc1[N+](=O)[O-])c1ccccn1.CCC[CH2][Sn+3],ATCC 90030,-,7.13 µM
COc1cccc(OCC(=O)c2ccccc2)c1,ATCC 90030,48 h,>125 µg/mL
OC(CCn1ccnc1)c1ccc(Br)cc1,RTCC 1054,-,>64 µg/mL
C[C@@H](c1ncncc1F)[C@](O)(Cn1cncn1)c1ccc(F)cc1F,8661,-,1 µg/mL
CCCC[C@@H](C)/C=C(C)/C=C(\C)C(=O)N/C(=C/[C@@](C)(O)/C=C/C=C/C=C/C(=O)NC1=C(O)CCC1=O)C(=O)[C@@H]1CO1,2,-,25 µM
OC(CCn1ccnc1)c1cccc(C(O)c2ccc(Br)cc2)c1,RTCC 1054,-,>64 µg/mL
CCCCCCCC/C=C\CCCCCCCC(=O)NCCCN,ATCC 90030,-,64 µg/mL
Nc1scc2c1c(=O)oc1ccccc12,IP35,-,32 µg/mL
O/N=C(/COc1cccc(Cl)c1)c1ccccc1,ATCC 90030,48 h,31.25 µg/mL
OC(CCn1ccnc1)c1cccc(C(O)c2ccc(Cl)cc2)c1,RTCC 1040,-,>64 µg/mL

Repeating the final 5 entries:

OC(CCn1ccnc1)c1cccc(C(O)c2ccc(Br)cc2)c1 ; strain or isolate: RTCC 1054 ; result: >64 µg/mL
CCCCCCCC/C=C\CCCCCCCC(=O)NCCCN ; strain or isolate: ATCC 90030 ; result: 64 µg/mL
Nc1scc2c1c(=O)oc1ccccc12 ; strain or isolate: IP35 ; result: 32 µg/mL
O/N=C(/COc1cccc(Cl)c1)c1ccccc1 ; strain or isolate: ATCC 90030 ; conditions: 48 h ; result: 31.25 µg/mL
OC(CCn1ccnc1)c1cccc(C(O)c2ccc(Cl)cc2)c1 ; strain or isolate: RTCC 1040 ; result: >64 µg/mL